Pooled drug test results. Numbers come from NIAID ChemDB, via PubChem.

Common to all: growth or infection tests; organism: Mycobacterium avium complex; endpoint: MIC

Rows are shuffled and stem from different studies.

structure	strain or isolate	result
NC[C@H]1O[C@H](O[C@H]2[C@H](O)[C@@H](O[C@H]3O[C@H](CO)[C@@H](O)[C@H](N)[C@H]3O)[C@H](N)C[C@@H]2N)[C@H](O)[C@@H](O)[C@@H]1O	N-979 (HIV+)	4 µg/mL
CC1CCN(c2c(F)cc3c(=O)c(C(=O)O)cn(C4CC4)c3c2F)C1	PI12/39	2 µg/mL
CN[C@@H]1[C@H](O[C@H]2[C@H](O[C@H]3[C@H](O)[C@@H](O)[C@H](N=C(N)N)[C@@H](O)[C@@H]3N=C(N)N)O[C@@H](C)[C@]2(O)C=O)O[C@@H](CO)[C@H](O)[C@H]1O	101	16 µg/mL
CO[C@H]1/C=C/O[C@@]2(C)Oc3c(C)c(O)c4c(O)c(c5c(c4c3C2=O)NC2(CCN(CC(C)C)CC2)N=5)=NC(=O)/C(C)=C\C=C\[C@H](C)[C@H](O)[C@@H](C)[C@@H](O)[C@@H](C)[C@H](OC(C)=O)[C@@H]1C	3090-4	0.25 µg/mL
CO[C@H]1/C=C/O[C@@]2(C)Oc3c(C)c(O)c4c(O)c(c5c(c4c3C2=O)NC2(CCN(CC(C)C)CC2)N=5)=NC(=O)/C(C)=C\C=C\[C@H](C)[C@H](O)[C@@H](C)[C@@H](O)[C@@H](C)[C@H](OC(C)=O)[C@@H]1C	N-276	0.05 µg/mL
C[C@@H]1CN(c2c(F)c(N)c3c(=O)c(C(=O)O)cn(C4CC4)c3c2F)C[C@H](C)N1	1915112	2 µg/mL
CC[C@@H](CO)NCCN[C@@H](CC)CO	101-5	1.9 µg/mL
O=C(O)c1cn(C2CC2)c2c(F)c(N3CCN4CCC3C4)c(F)cc2c1=O	1172733	4 µg/mL
CCn1cc(C(=O)O)c(=O)c2cc(F)c(N3CCN(C)CC3)cc21	CIPT 14031006	2 µg/mL
CO[C@H]1/C=C/O[C@@]2(C)Oc3c(C)c(O)c4c(O)c(c(/C=N/N5CCN(C)CC5)c(O)c4c3C2=O)NC(=O)/C(C)=C\C=C\[C@H](C)[C@H](O)[C@@H](C)[C@@H](O)[C@@H](C)[C@H](OC(C)=O)[C@@H]1C	1168	8 µg/mL
CN[C@@H]1[C@H](O[C@H]2[C@H](O[C@H]3[C@H](O)[C@@H](O)[C@H](N=C(N)N)[C@@H](O)[C@@H]3N=C(N)N)O[C@@H](C)[C@]2(O)C=O)O[C@@H](CO)[C@H](O)[C@H]1O	N-966	16 µg/mL
NCC1(O)CCN(c2c(F)cc3c(=O)c(C(=O)O)cn(N4CC4)c3c2F)C1	1172733	32 µg/mL
NCC[C@H](O)C(=O)N[C@@H]1C[C@H](N)[C@@H](O[C@H]2O[C@H](CN)[C@@H](O)[C@H](O)[C@H]2O)[C@H](O)[C@H]1O[C@H]1O[C@H](CO)[C@@H](O)[C@H](N)[C@H]1O	31 strains	32 µg/mL
CO[C@H]1/C=C/O[C@@]2(C)Oc3c(C)c(O)c4c(=O)c(c5oc6cc(N7CCN(CC(C)C)CC7)cc(=O)c6nc5c4c3=C2O)NC(=O)/C(C)=C\C=C\[C@H](C)[C@H](O)[C@@H](C)[C@@H](O)[C@@H](C)[C@H](OC(C)=O)[C@@H]1C	101	0.12 µg/mL
NCC[C@H](O)C(=O)N[C@@H]1C[C@H](N)[C@@H](O[C@H]2O[C@H](CN)[C@@H](O)[C@H](O)[C@H]2O)[C@H](O)[C@H]1O[C@H]1O[C@H](CO)[C@@H](O)[C@H](N)[C@H]1O	W6506	8 µg/mL
CC[C@@H](CO)NCCN[C@@H](CC)CO	LPR	16 µg/mL
NC[C@@H]1O[C@H](O[C@H]2[C@@H](O)[C@H](O[C@@H]3[C@@H](O)[C@H](N)C[C@H](N)[C@H]3O[C@H]3O[C@H](CO)[C@@H](O)[C@H](O)[C@H]3N)O[C@@H]2CO)[C@H](N)[C@@H](O)[C@@H]1O	PLR-3/HIV+	1.56 µg/mL
CC[C@@H](CO)NCCN[C@@H](CC)CO	-	>2 µg/mL
C[C@@H]1CN(c2c(F)c(N)c3c(=O)c(C(=O)O)cn(C4CC4)c3c2F)C[C@H](C)N1	MO-1	1 µg/mL
CC(=O)OCC1=C(C(=O)O)N2C(=O)[C@@H](NC(=O)Cc3cccs3)[C@H]2SC1	31 strains	16 µg/mL
COc1c(N2C[C@@H]3CCCN[C@@H]3C2)c(F)cc2c(=O)c(C(=O)O)cn(C3CC3)c12	101	0.1 µg/mL
CO[C@H]1/C=C/O[C@@]2(C)Oc3c(C)c(O)c4c(O)c(c(/C=N/N5CCN(C/C=C/c6ccccc6)CC5)c(O)c4c3C2=O)NC(=O)/C(C)=C\C=C\[C@H](C)[C@H](O)[C@@H](C)[C@@H](O)[C@@H](C)[C@H](OC(C)=O)[C@@H]1C	SK-32	0.06 µg/mL
CN[C@@H]1[C@@H](O)[C@@H](O[C@@H]2[C@@H](O)[C@H](O[C@H]3O[C@H](CN)CC[C@H]3N)[C@@H](N)C[C@H]2N)OC[C@]1(C)O	ATCC 35718	32 µg/mL
NCC[C@H](O)C(=O)N[C@@H]1C[C@H](N)[C@@H](O[C@H]2O[C@H](CN)[C@@H](O)[C@H](O)[C@H]2O)[C@H](O)[C@H]1O[C@H]1O[C@H](CO)[C@@H](O)[C@H](N)[C@H]1O	3220	32 µg/mL
CO[C@H]1/C=C/O[C@@]2(C)Oc3c(C)c(O)c4c(O)c(c(/C=N/N5CCN(C6CCCC6)CC5)c(O)c4c3C2=O)NC(=O)/C(C)=C\C=C\[C@H](C)[C@H](O)[C@@H](C)[C@@H](O)[C@@H](C)[C@H](OC(C)=O)[C@@H]1C	Isolate A	0.125 µg/mL
CC(C)N=c1cc2n(-c3ccc(Cl)cc3)c3ccccc3nc-2cc1Nc1ccc(Cl)cc1	804/HIV+	0.25 µg/mL
CC1(C)S[C@@H]2[C@H](NC(=O)[C@H](N)c3ccc(O)cc3)C(=O)N2[C@H]1C(=O)O	31 strains	16 µg/mL
NCC[C@H](O)C(=O)N[C@@H]1C[C@H](N)[C@@H](O[C@H]2O[C@H](CN)[C@@H](O)[C@H](O)[C@H]2O)[C@H](O)[C@H]1O[C@H]1O[C@H](CO)[C@@H](O)[C@H](N)[C@H]1O	1124	20 µg/mL
CO[C@H]1/C=C/O[C@@]2(C)Oc3c(C)c(O)c4c(O)c(c5c(c4c3C2=O)NC2(CCN(CC(C)C)CC2)N=5)=NC(=O)/C(C)=C\C=C\[C@H](C)[C@H](O)[C@@H](C)[C@@H](O)[C@@H](C)[C@H](OC(C)=O)[C@@H]1C	Isolate A	0.06 µg/mL
O=C(O)c1cn(C2CC2)c2c(F)c(N3CC4C(CO)C4C3)c(F)cc2c1=O	1915112	16 µg/mL
Cc1cc(NS(=O)(=O)c2ccc(N)cc2)no1	11 strains	≥100 µg/mL
CO[C@H]1/C=C/O[C@@]2(C)Oc3c(C)c(O)c4c(O)c(c(/C=N/N5CCN(C)CC5)c(O)c4c3C2=O)NC(=O)/C(C)=C\C=C\[C@H](C)[C@H](O)[C@@H](C)[C@@H](O)[C@@H](C)[C@H](OC(C)=O)[C@@H]1C	Strain 1	0.5 µg/mL
CO[C@H]1/C=C/O[C@@]2(C)Oc3c(C)c(O)c4c(O)c(c(/C=N/N5CCN(C)CC5)c(O)c4c3C2=O)NC(=O)/C(C)=C\C=C\[C@H](C)[C@H](O)[C@@H](C)[C@@H](O)[C@@H](C)[C@H](OC(C)=O)[C@@H]1C	551/HIV+	8 µg/mL
CC(C)N=c1cc2n(-c3ccc(Cl)cc3)c3ccccc3nc-2cc1Nc1ccc(Cl)cc1	Strain #3	0.12 µg/mL
CC[C@@H](CO)NCCN[C@@H](CC)CO	101	16 µg/mL
CCn1cc(C(=O)O)c(=O)c2cc(F)c(N3CCNCC3)nc21	2 strains	>5 µg/mL
COc1c(N2CCNC(C)C2)c(F)cc2c(=O)c(C(=O)O)cn(C3CC3)c12	N-966	8 µg/mL
CN[C@@H]1[C@H](O[C@H]2[C@H](O[C@H]3[C@H](O)[C@@H](O)[C@H](N=C(N)N)[C@@H](O)[C@@H]3N=C(N)N)O[C@@H](C)[C@]2(O)C=O)O[C@@H](CO)[C@H](O)[C@H]1O	Isolate C-48	400 µg/mL
CO[C@H]1/C=C/O[C@@]2(C)Oc3c(C)c(O)c4c(O)c(c5c(c4c3C2=O)NC2(CCN(CC(C)C)CC2)N=5)=NC(=O)/C(C)=C\C=C\[C@H](C)[C@H](O)[C@@H](C)[C@@H](O)[C@@H](C)[C@H](OC(C)=O)[C@@H]1C	MO-1	2 µg/mL
N[C@@H]1CN(c2c(F)cc3c(=O)c(C(=O)O)cn([C@@H]4C[C@@H]4F)c3c2Cl)CC12CC2	N-444	1 µg/mL
CO[C@H]1/C=C/O[C@@]2(C)Oc3c(C)c(O)c4c(O)c(c5c(c4c3C2=O)NC2(CCN(CC(C)C)CC2)N=5)=NC(=O)/C(C)=C\C=C\[C@H](C)[C@H](O)[C@@H](C)[C@@H](O)[C@@H](C)[C@H](OC(C)=O)[C@@H]1C	101	2 µg/mL
CO/N=C(\C(=O)N[C@@H]1C(=O)N2C(C(=O)O)=CCS[C@H]12)c1csc(N)n1	J11	1.56 µg/mL
CN[C@@H]1[C@H](O)[C@H](NC)[C@H]2O[C@@]3(O)C(=O)C[C@@H](C)O[C@H]3O[C@@H]2[C@H]1O	ATCC 35718	64 µg/mL
CN1CCN(c2cc3c(cc2F)c(=O)c(C(=O)O)cn3-c2ccc(F)cc2)CC1	3219	16 µg/mL
CO[C@H]1/C=C/O[C@@]2(C)Oc3c(C)c(O)c4c(O)c(c(/C=N/N5CCN(C6CCCC6)CC5)c(O)c4c3C2=O)NC(=O)/C(C)=C\C=C\[C@H](C)[C@H](O)[C@@H](C)[C@@H](O)[C@@H](C)[C@H](OC(C)=O)[C@@H]1C	LPR	0.25 µg/mL
CN[C@@H]1[C@@H](O)[C@@H](O[C@@H]2[C@@H](O)[C@H](O[C@H]3O[C@H](CN)CC[C@H]3N)[C@@H](N)C[C@H]2N)OC[C@]1(C)O	101	>64 µg/mL

An empty or dashed field is not shown.